These results are taken from PubChem BioAssay AID624415 (National Center for Advancing Translational Sciences (NCATS), 2012).

Chains of the proteins cited; added tags and fusions are not shown.
UniProt Q9GZU1, whole entry: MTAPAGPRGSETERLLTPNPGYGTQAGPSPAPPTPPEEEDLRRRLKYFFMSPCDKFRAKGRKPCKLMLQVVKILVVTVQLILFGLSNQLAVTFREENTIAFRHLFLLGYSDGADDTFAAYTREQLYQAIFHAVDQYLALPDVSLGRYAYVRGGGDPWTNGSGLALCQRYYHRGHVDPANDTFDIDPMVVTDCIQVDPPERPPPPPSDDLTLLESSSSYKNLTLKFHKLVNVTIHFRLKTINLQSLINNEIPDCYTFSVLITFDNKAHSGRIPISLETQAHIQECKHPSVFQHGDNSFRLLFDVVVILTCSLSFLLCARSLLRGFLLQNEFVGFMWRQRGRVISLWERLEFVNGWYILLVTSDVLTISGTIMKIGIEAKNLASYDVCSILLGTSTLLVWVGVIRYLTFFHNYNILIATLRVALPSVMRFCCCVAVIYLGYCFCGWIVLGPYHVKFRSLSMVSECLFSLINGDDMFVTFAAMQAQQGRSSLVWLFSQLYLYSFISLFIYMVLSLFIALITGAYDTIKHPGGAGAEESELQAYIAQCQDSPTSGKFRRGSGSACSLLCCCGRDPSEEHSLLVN

The list shows a part of the results, in another mix than the full data. Activity calls are given as the source filed them. Cut-off read from the data, not from the text of the source: active = activity change below about -50%; inconclusive = between about -30% and that limit; inactive = weaker than that.
% is set by controls: 0 for no effect and ±100 for the full control effect.

The experiment deals with Mucolipin-1 (Homo sapiens) (UniProt Q9GZU1). The experiment in a line: qHTS for Inhibitors of the Human Mucolipin Transient Receptor Potential 1 (TRPML1).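 Note: stimulus is agonist 54-4 at its EC80 concentration.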 The conditions noted are these: TRPML1-inducible cells, Ca2+ dye fluorescence, FDSS; hits give low values; inhibition of EC80 agonist-evoked calcium signal. An excerpt:
Mutations of human Mucolipin transient receptor potential 1 (TRPML1) cause type IV mucolipidosis (ML4), a devastating neurodegenerative disease in young children. […] Currently, there is no treatment for ML4. […] Under physiological conditions, TRPMLs regulate membrane trafficking by transducing information about PI(3,5)P2 levels into changes in juxtaorganellar Ca2+, thereby triggering membrane fusion/fission events in the late endocytic pathways (endolysosomal trafficking). In addition, TRPML1 mediates release of Fe2+ from late endosomes and lysosomes, which is essential for cellular iron metabolism. Thus, impaired ion (Ca2+ and Fe2+) homeostasis underlies lysosomal dysfunction and ML4 phenotypes. In ML4 cells, the problem is twofold. First, defective Ca2+-dependent membrane trafficking due to TRPML1-deficiency causes accumulation of lipids and other bio-materials in the lysosome. The second strike comes from the lysosomal iron overload (due to impairment of TRPML1's Fe2+ conductivity), which converts the accumulated materials into the nondegradable (resistant to lysosomal degradation) lipofuscin (also called aging pigment) in the lysosome. Lipofuscin accumulation dramatically compromises the functions of lysosomes.
Niemann-Pick type C (NPC) disease is another lysosome storage disease (LSD) with severe neurodegeneration during the childhood. Currently, there is no cure for NPC. […] Thus, TRPML1 is likely to be an essential regulator of lysosome ion homeostasis. We specifically hypothesize that stimulating TRPML1's Fe2+/Ca2+ channel activity in the lysosome using synthetic agonists can alleviate neurodegeneration associated with ML4 or NPC.
To this end, a high throughput screen was developed in a miniaturized format to screen against the Molecular Libraries Small Molecule Repository (MLSMR) to find small molecules that act either as inhibitors or agonist against the TRPML1 channel.
NIH Chemical Genomics Center [NCGC]
NIH Molecular Libraries Probe Centers Network [MLPCN]
Assay Submitter (PI): Haoxing Xu, University of Michigan Ann Arbor
TRPML1-DL cells are dissociated from flasks, counted and, brought up to a density of 500,000 cells per mL of media containing a 1X Tet inducer. Using a Multidrop Combi, 3 uL of this cell solution is dispensed to each well of a 1536 TC treated, black, clear bottom hi base plate for a final cell density of 1,500 cells per well. The assay plates are incubated overnight (approximately 16 hours) at 37 degrees C and 5% CO2. Using a Multidrop Combi, 2 uL of ABD Ca8 no wash dye plus quencher is added to each well. The assay plates incubate at room temperature in the dark for 45-90 minutes. The assay plate is read on the FDSS using the following protocol: 10 second baseline read, 23 nL of compounds and controls are added using 1536 pintool, agonist read for 110 seconds, 1 uL EC80 addition (4 uM final 54-4 diluted in media), antagonist read for 110 seconds.
On the technique in general: In qHTS, concentration-response curves come from the screen itself.
Take `O=C(OCCCN1CCCC1)C(O)(c1ccccc1)C1CCCCC1` (stereo not given): the activity change, negative = inhibition was inactive: 11.1%.

As to `CCN(CC)CC(O)COC(=O)C(O)(c1ccccc1)C1CCCCC1` (stereo not given), the activity change, negative = inhibition is inactive: -9.32%.

Regarding `COc1ccc(OP(C)(=O)Nc2ccc(Br)cc2)cc1` (stereo not given), the activity change, negative = inhibition is inactive: 4.17%.

As to `c1cc(-c2nn[nH]n2)ccc1-c1nn[nH]n1`, the activity change, negative = inhibition was inactive: -8.36%.

For `CC1CCN(C(=O)Oc2c(Cl)cc(Cl)c3cccnc23)CC1`, the activity change, negative = inhibition is inactive: -1.41%.

With `CC(C)=N/N=C(\N)N[N+](=O)[O-]`, the activity change, negative = inhibition was inactive: -0.286%.

For the compound `CN(C)C(=O)c1c([N+](=O)[O-])cc([N+](=O)[O-])cc1[N+](=O)[O-]`, the activity change, negative = inhibition was inactive: 18.7%.

Take `CC(C)c1nc(Nc2ccccc2)n(P(=O)(N(C)C)N(C)C)n1`: the activity change, negative = inhibition is inactive: -6.49%.

On to `CN(C)C(=O)OCCc1n(C)cc[n+]1C`, for which the activity change, negative = inhibition was inactive: -9.19%.

Regarding `CCN(/C(=N/P(=O)(N1CCOCC1)N1CCOCC1)N1CCOCC1)c1ccc(OC)cc1`, the activity change, negative = inhibition was inactive: -9.38%.

On to `CP(=O)(Nc1ccc(Cl)cc1)Oc1ccc(F)cc1` (stereo not given), for which the activity change, negative = inhibition is inactive: -8.56%.

In the case of `Nc1ccc([As](=O)(O)c2ccc(N)cc2)cc1`, the activity change, negative = inhibition is inactive: 6.62%.

On to `CC(C)(C)c1ccc(OP(C)(=O)O)cc1`, for which the activity change, negative = inhibition was inactive: -0.722%.

With `COc1ccccc1OP(C)(=O)Nc1ccccc1Br` (stereo not given), the activity change, negative = inhibition is inactive: -5.99%.

With `C[N+]1=C2C=CC=CC=C2SC12C([N+](=O)[O-])=CC([N+](=O)[O-])=C[C-]2[N+](=O)[O-]` (stereo not given), the activity change, negative = inhibition was inactive: 7.64%.

`CN(C)CCOC(=O)C(O)(c1ccccc1)C1CCCC1` (stereo not given): the activity change, negative = inhibition is inactive: -5.88%.

Regarding `Clc1ccc(Cl)c(NC2=NCC(CBr)S2)c1` (stereo not given), the activity change, negative = inhibition was inactive: -4.65%.

For `CN1CCCC(OC(=O)C(c2ccccc2)c2ccccc2)C1` (stereo not given), the activity change, negative = inhibition is inactive: -3.06%.

As to `COc1ccc(OP(C)(=O)Nc2ccccn2)cc1` (stereo not given), the activity change, negative = inhibition is inactive: -14%.

With `COc1ccccc1OP(=O)(Nc1ccc(C)cn1)Oc1ccccc1OC`, the activity change, negative = inhibition is inactive: -26.5%.

As to `Cc1ccc(OP(=O)(Nc2nccs2)Oc2ccc(C)cc2)cc1`, the activity change, negative = inhibition was inactive: 46%.

`COc1ccccc1OP(C)(=O)Nc1ccc(Br)cc1` (stereo not given): the activity change, negative = inhibition was inactive: 9.78%.

For the compound `CN(C(=O)Cc1ccc(Cl)c(Cl)c1)[C@H]1CCCC[C@H]1N1CCCC1`, the activity change, negative = inhibition was inactive: 14.9%.

As to `Cc1ccc(N/C(=N/P(=O)(N2CCOCC2)N2CCOCC2)N2CCOCC2)cc1`, the activity change, negative = inhibition was inactive: -7.93%.

With `NC(=O)c1cc([N+](=O)[O-])cc([N+](=O)[O-])c1N`, the activity change, negative = inhibition was inactive: 1.09%.

Take `CCc1ccc(OP(C)(=O)O)cc1`: the activity change, negative = inhibition is inactive: 14.5%.

Turning to `CP(=O)(Nc1ccccn1)Oc1ccccc1` (stereo not given), the activity change, negative = inhibition was inactive: 10.2%.

Consider `COc1ccccc1OP(C)(=O)Nc1ccc(C)cc1C` (stereo not given), for which the activity change, negative = inhibition is inactive: -15.7%.

For the compound `Oc1ccccc1CNc1ccccn1`, the activity change, negative = inhibition was inactive: 6.31%.

Turning to `O=C(NC(Sc1ccncn1)C(Cl)(Cl)Cl)c1ccccc1` (stereo not given), the activity change, negative = inhibition was inactive: 5.23%.

As to `O=[N+]([O-])c1cc([N+](=O)[O-])c(Nc2ccccn2)c([N+](=O)[O-])c1`, the activity change, negative = inhibition is inactive: 8.4%.

For `CC(C)CC(=O)NC(Sc1ccc(Cl)cc1)C(Cl)(Cl)Cl` (stereo not given), the activity change, negative = inhibition is inactive: -8.36%.

As for `Nc1cc(N)c2nonc2c1[N+](=O)[O-]`, the activity change, negative = inhibition is inactive: 12.1%.

As to `Cc1c(NP(C)(=O)Oc2ccc(C(C)C)cc2)c(=O)n(-c2ccccc2)n1C` (stereo not given), the activity change, negative = inhibition is inactive: 4.58%.

Turning to `COc1ccc(OP(C)(=O)Nc2ccccc2Br)cc1` (stereo not given), the activity change, negative = inhibition was inactive: 2.65%.

For `CCOP(=O)(Nc1ccccc1)OCC`, the activity change, negative = inhibition is inactive: -2.39%.

Consider `Cc1cc(SC(NC(=O)c2ccc(F)cc2)C(Cl)(Cl)Cl)ncn1` (stereo not given), for which the activity change, negative = inhibition is inactive: -9.17%.

As for `CN(C(=O)Cc1ccc(Cl)c(Cl)c1)[C@H]1CCCC[C@@H]1N1CCCC1`, the activity change, negative = inhibition was inactive: -12.6%.

With `Cc1ccc(NP(=O)(Oc2ccccc2F)Oc2ccccc2F)nc1`, the activity change, negative = inhibition is inactive: 19.3%.

Consider `COc1ccccc1OP(C)(=O)Nc1ccc(C)c(C)c1` (stereo not given), for which the activity change, negative = inhibition is inactive: -19%.

Regarding `CN(C)P(=O)(N(C)C)n1c(Nc2ccccc2)nnc1-c1ccccc1`, the activity change, negative = inhibition was inactive: 27.2%.

With `Cc1cc(C)cc(OP(C)(=O)Nc2cccc(C(F)(F)F)c2)c1` (stereo not given), the activity change, negative = inhibition was inactive: -4.95%.

Turning to `O=P(Nc1nc2ccc(Cl)cc2s1)(c1ccccc1)c1ccccc1`, the activity change, negative = inhibition was inactive: -19.9%.

Consider `O=C(O)c1ccccc1[As](=O)(O)O`, for which the activity change, negative = inhibition was inactive: 32%.

On to `CC(=O)Nc1ccc([As](=O)(O)O)cc1`, for which the activity change, negative = inhibition is inactive: -8.67%.

Take `CCCC1OP(N)(=O)OCC1CC` (stereo not given): the activity change, negative = inhibition was inactive: -4.87%.

In the case of `Nc1cccc2ccc([As](=O)(O)O)cc12`, the activity change, negative = inhibition is inactive: 20.1%.

Consider `CP(=O)(OCCOc1ccccc1)OCCOc1ccccc1`, for which the activity change, negative = inhibition was inactive: -14.1%.

Consider `CCCCCCCCCCCCCCCC1C[N+](C)(C)CCOP(C)(=O)O1` (stereo not given), for which the activity change, negative = inhibition is inactive: -0.604%.

Regarding `CP(=O)(Nc1ccc(Cl)cc1Cl)Oc1ccccc1` (stereo not given), the activity change, negative = inhibition is inactive: -5.81%.
